# Assay results from patent publication US12414935B2, “Compounds and methods for the treatment of parasitic diseases” (WASHINGTON UNIVERSITY, priority 2019, dated 2025).
# Key:
# [1] = test system: C. parvum; test: C. parvum in vitro EC50 assay in ALI culture; type: cell-based; conditions: ratio of ALI EC50 (48 hr) to HCT8 EC50 (24 hr)
# Procedure: In vitro assays measuring the EC50 value for C. parvum infection may be run to determine the efficacy of the compounds. For example, human ileocecal adenocarcinoma (HCT-8) cells can be obtained from ATCC and maintained in T-75 tissue culture flasks with RPMI 1640 medium with HEPES, sodium pyruvate (1 mM), and L-glutamine (ATCC) supplemented with 10% horse serum (ATCC) and 120 U/ml penicillin and 120 μg/ml streptomycin. Cells can be plated into 384-well, tissue culture-treated, black-walled, clearbottom microwell plates (BD Falcon) at a density of 8,850 cells/well and allowed to grow to confluence. The cells may then be inoculated with 5.5×10^3 primed C. parvum oocysts (Bunchgrass Farms, Deary, ID) suspended in inoculation medium (RPMI 1640 without horse serum). Oocysts may be primed for excystation by following a previously described protocol (J. Eukaryot. Microbiol. 46:56S-57S). Briefly, oocysts can be treated for 10 min with 10 mM HCl at 37° C., centrifuged, and treated with a 2 mM solution of sodium taurocholate (Sigma-Aldrich) in phosphate-buffered saline (PBS) with Ca^2+ and Mg^2+. The suspension can be incubated for 10 min at 16° C. and then diluted in inoculation medium and added to each well. Infected cells are incubated at 37° C. for 3 h, at which point an equal volume of growth medium containing 20% horse serum (total serum concentration of 10%) is produced. Compounds are diluted and assayed at fixed doses (e.g., 0.12, 0.37, 1.1, 3.3, and 10 μM, with each concentration, n=14) for the generation of EC50 curves. In the case of final EC50 curves, three wells are left uninfected but treated with each of the corresponding concentrations of the compound to assess for background staining. All curves are generated using the log[inhibitor] versus response variable slope equation in GraphPad Prism, with the bottom constraint set equal to 0.
# Such assays were prepared on HTC-8 cells and ALI. Table 2 illustrates measured EC50 at various time points.
# Briefly, i3T3 cells were plated in CM media. Spheroids were plated on the cells. […]
# [2] = test system: Cryptosporidium; conditions: cited from earlier work
Structure (SMILES),Fold change (ALI-EC50/HCT8-EC50) [1],Efficacy against cryptosporidiosis in children ([2]; children),"Efficacy against cryptosporidiosis in patients with AIDS ([2]; patients with AIDS, versus placebo)"
"COc1ccc(NC(=O)N2CCCCN3[C@H](CN(C)S(C)(=O)=O)[C@H](c4ccc(C#Cc5ccccc5)cc4)[C@@H]3C2)cc1 [Compound 1, (8R,9R,10S)-N-(4-methoxyphenyl)-10-((N-methylmethylsulfonamido)methyl)-9-(4-(phenylethynyl)phenyl)-1,6-diazabicyclo[6.2.0]decane-6-carboxamide]",2.5,,
"COc1ccc(NC(=O)N2CCCCN3[C@H](CN(C)C)[C@H](c4ccc(C#Cc5ccccc5)cc4)[C@@H]3C2)cc1 [Compound 2, (8R,9S,10S)-10-((dimethylamino)methyl)-N-(4-methoxyphenyl)-9-(4-(phenylethynyl)phenyl)-1,6-diazabicyclo[6.2.0]decane-6-carboxamide]",3.4,,
"CC(=O)Oc1ccccc1C(=O)Nc1ncc([N+](=O)[O-])s1 [Nitazoxanide, reference compound]",11.8,partial efficacy,no more effective than placebo
